{
  "source": "patent US20250154231A1",
  "data": [
    {"target": "SARS-CoV-2 spike (S) protein, Omicron BA.2 + R493Q (SARS-CoV-2) (UniProt P0DTC2)", "assay": "cell-based or functional assay", "units": {"pseudovirus neutralisation IC50": "ng/mL"}, "values": [
      {"substance": "Omi-03 (antibody)", "pseudovirus neutralisation IC50": 2},
      {"substance": "Omi-12 (antibody)", "pseudovirus neutralisation IC50": 1},
      {"substance": "Omi-18 (antibody)", "pseudovirus neutralisation IC50": 4},
      {"substance": "Omi-29 (antibody)", "pseudovirus neutralisation IC50": 42},
      {"substance": "Omi-42 (antibody)", "pseudovirus neutralisation IC50": 6}
    ]},
    {"target": "SARS-CoV-2 spike (S) protein, Omicron BA.2.75 (SARS-CoV-2) (UniProt P0DTC2)", "assay": "cell-based or functional assay", "units": {"fold reduction of neutralising activity compared to BA.2": "fold"}, "values": [
      {"substance": "AZD7442", "fold reduction of neutralising activity compared to BA.2": 2}
    ]}
  ]
}
